Results of unrelated studies side by side (data: NIAID ChemDB).

Common to all: tests in culture; agent: HIV-1; endpoint: inhibition

Neighbouring rows are from separate reports.

{"SMILES": "Cc1cn([C@H]2C[C@H](N=[N+]=[N-])[C@@H](CO)O2)c(=O)[nH]c1=O", "cell line": "CEM + CEM-SS", "tested at": "0.001 ng/mL", "strain": "RFII", "result": "16%"}
{"SMILES": "O=C(Nc1cc(S(=O)(=O)O)cc2cc(S(=O)(=O)O)c(N=Nc3ccc(N=Nc4c(S(=O)(=O)O)cc5cc(S(=O)(=O)O)cc(NC(=O)c6cccc(Cl)c6Cl)c5c4O)cc3)c(O)c12)c1ccc(Cl)cc1Cl", "cell line": "PBMC", "tested at": "0.79 µg/mL", "strain": "SF162", "result": "90%"}
{"SMILES": "Cc1cn([C@H]2C[C@H](N=[N+]=[N-])[C@@H](CO)O2)c(=O)[nH]c1=O", "cell line": "PBL", "tested at": "1 µM", "strain": "JR-CSF", "result": "95%"}
{"SMILES": "CC(C)=CCN1c2cc(Cl)cc3[nH]c(=S)n(c23)C[C@@H]1C", "cell line": "MT-4", "tested at": "0.1 µM", "strain": "WT", "result": "95%"}
{"SMILES": "Cc1cn([C@H]2C[C@@H](N=[N+]=[N-])C[C@@H](CO)O2)c(=O)[nH]c1=O", "cell line": "MT-4", "tested at": "333 µM", "strain": "IIIB", "result": "0%"}
{"SMILES": "COCCNC(=O)[C@@H](NC(=O)[C@H](Cc1ccc(OC)c(OC)c1OC)C[C@H](O)[C@H](Cc1ccccc1)NC(=O)OC(C)(C)C)C(C)C", "cell line": "Macrophages HIV-1 + Macrophage", "conditions": "chronic infection, inside macrophages", "tested at": "1 µM", "result": "100%"}
{"SMILES": "CCC(C)[C@H](NC(=O)[C@H](C(C)C)[C@@H](O)[C@H](O)[C@H](CC1CCCCC1)NC(=O)c1ccccc1SCCCCC[C@@H]1SC[C@@H]2NC(=O)NC21)C(=O)NCc1ccccn1", "cell line": "PBMC", "tested at": "0.1 µM", "strain": "D34", "result": "17%"}
{"SMILES": "C=C(C)[C@]12C[C@@H](COC(=O)c3ccccc3)[C@@]34O[C@]5(O[C@@H]1[C@@H]3[C@@H]1O[C@]1(CO)[C@@H](O)[C@@]1(O)[C@H]4[C@H]([C@H](C)[C@@H]1OC(=O)c1ccccc1)[C@H](C)CCCCCC[C@H]5O)O2", "cell line": "PBMC", "tested at": "0.001 µM", "result": "90%"}
{"SMILES": "O=C(O)P(=O)(O)O", "cell line": "PBL", "conditions": "14 d", "tested at": "64 µM", "strain": "IIIB", "result": "0%"}
{"SMILES": "NC(=O)c1ccn2c1CS[C@@H]2c1cccnc1", "cell line": "Monocytes/macrophages", "tested at": "100 µM", "strain": "DAS", "result": "80%"}
{"SMILES": "NC12CC3CC(CC(C3)C1)C2", "cell line": "MT-4", "tested at": "1 µg/mL", "strain": "LAV", "result": "60%"}
{"SMILES": "Cc1ncnc(C)c1C(=O)N1CCC(C)(N2CCN([C@@H](Cc3ccccc3)c3ccc(C(F)(F)F)cc3)[C@@H](C)C2)CC1", "cell line": "PBMC", "tested at": "0.00027 µM", "strain": "JV1083 Clinical isolates", "result": "90%"}
{"SMILES": "CCCC(=O)O[C@H]1CN2CC[C@H](O)[C@@H]2[C@@H](O)[C@@H]1O", "cell line": "H9", "tested at": "20 µM", "strain": "IIIB", "result": "99%"}
{"SMILES": "C[C@H]1O[C@@H](O[C@H]2[C@@H](O)C[C@H](O[C@H]3[C@@H](O)C[C@H](O[C@H]4CC[C@@]5(C)[C@H](CC[C@@H]6[C@@H]5C[C@@H](O)[C@]5(C)[C@@H](C7=CC(=O)OC7)CC[C@]65O)C4)O[C@@H]3C)O[C@@H]2C)C[C@H](O)[C@@H]1O", "cell line": "HeLa", "tested at": "0.1 µM", "strain": "LAI", "result": "90%"}
{"SMILES": "O=C1N(C/C=C/c2cn[nH]c2)[C@H](Cc2ccccc2)[C@H](O)[C@@H](O)[C@@H](Cc2ccccc2)N1CC1CC1", "cell line": "MT-2", "tested at": "0.82 µM", "strain": "RF", "result": "90%"}
{"SMILES": "O=C1CN=C(c2ccc[nH]2)c2cc(Cl)ccc2N1", "cell line": "HeLa (TAT) + HeLa", "tested at": "1 µM", "result": "46%"}
{"SMILES": "O=C1N(Cc2ccc3[nH]c(=O)[nH]c3c2)[C@H](Cc2ccccc2)[C@H](O)[C@@H](O)[C@@H](Cc2ccccc2)N1Cc1ccc2[nH]c(=O)[nH]c2c1", "cell line": "MT-2", "tested at": "65 µM", "strain": "RF", "result": "<90%"}
{"SMILES": "CC[C@H]1[C@@H]2C[C@H]3[C@@H]4N(C)c5ccccc5[C@]45C[C@@H]([C@@H]2[C@H]5O)N3[C@@H]1O", "cell line": "MT-4", "tested at": "10 µg/mL", "strain": "LAV", "result": "0%"}
{"SMILES": "COc1ccc(S(=O)(=O)N(CC(C)C)C[C@@H](O)[C@H](Cc2ccccc2)NC(=O)c2cccc(O)c2C)cc1", "cell line": "CEM", "tested at": "0.059 µM", "strain": "IIIB", "result": "95%"}
{"SMILES": "CCNc1cccnc1N1CCN(C(=O)c2cc3cc(OC)ccc3[nH]2)CC1", "cell line": "MT-2", "tested at": "1 µM", "strain": "LAV", "result": "83%"}
{"SMILES": "C=CCOc1ccccc1OCC(O)CNC(C)C", "cell line": "MT-4", "tested at": "100 µg/mL", "strain": "LAV", "result": "0%"}
{"SMILES": "CCCC1(CCC)CC(O)=C(Cc2cccc(NS(=O)(=O)c3cn(C)cn3)c2)C(=O)O1", "cell line": "H9", "tested at": "3 µM", "strain": "IIIB", "result": "5%"}
{"SMILES": "C=C(CC[C@@H](C)[C@H]1CC=C2C3=C([C@@H](O)[C@H](OC(C)=O)[C@@]21C)[C@@]1(C)C[C@@H](O)[C@H](OS(=O)(=O)O)C(C)(C)[C@@H]1CC3)C(C)C", "tested at": "25 µM", "result": "95%"}
{"SMILES": "CC(C)C[C@@H]1[C@H](O)[C@@H](O)[C@@H](CC(C)C)N(Cc2cccc(C(=O)Nc3nc4ccccc4[nH]3)c2)C(=O)N1Cc1cccc(C(=O)Nc2nc3ccccc3[nH]2)c1", "cell line": "MT-2", "conditions": "3 d", "tested at": "0.02 µM", "mutations": "PR-I84V", "strain": "RF", "result": "90%"}
{"SMILES": "Nc1cccc(CN2C(=O)N(Cc3cccc(N)c3)[C@H](Cc3ccccc3)[C@H](O)[C@@H](O)[C@H]2Cc2ccccc2)c1", "cell line": "MT-2", "tested at": "0.125 µM", "strain": "RF", "result": "90%"}
{"SMILES": "COC(=O)C(N)CC(=O)COC(=O)[C@H]1O[C@H](O[C@H]2CC[C@]3(C)[C@H]4C(=O)C=C5[C@@H]6C[C@@](C)(C(=O)O)CC[C@]6(C)CC[C@@]5(C)[C@]4(C)CC[C@H]3C2(C)C)[C@H](O[C@@H]2O[C@H](C(=O)O)[C@@H](O)[C@H](O)[C@H]2O)[C@@H](O)[C@@H]1O.S", "cell line": "MT-4", "tested at": "500 µg/mL", "result": "97.27%"}
{"SMILES": "OCCN1CCN(CCCN2c3ccccc3Sc3ccc(Cl)cc32)CC1", "cell line": "MT-4", "tested at": "10 µg/mL", "strain": "LAV", "result": "96%"}
{"SMILES": "C[C@H]1CCC/C=C/[C@@H]2C[C@H](O)C[C@H]2[C@@H](O)/C=C/C(=O)O1", "cell line": "MOLT-3", "tested at": "5 µg/mL", "strain": "IIIB", "result": "80%"}

2 of the rows above, restated:

SMILES | cell line | conditions | tested at | mutations | strain | result
Cc1cn([C@H]2C[C@H](N=[N+]=[N-])[C@@H](CO)O2)c(=O)[nH]c1=O | CEM + CEM-SS | - | 0.001 ng/mL | - | RFII | 16%
O=C1N(C/C=C/c2cn[nH]c2)[C@H](Cc2ccccc2)[C@H](O)[C@@H](O)[C@@H](Cc2ccccc2)N1CC1CC1 | MT-2 | - | 0.82 µM | - | RF | 90%

Percent inhibition refers to the dose given; in toxicity tests it is the harm to the cells. An empty or dashed field is not shown.